From PMC5762655
Construct, isoform or probe ends are uncertain for at least one entry.

Target: Fis-GST (Dickeya zeae EC1) (UniProt D2C1X4)
Test: EMSA
Conditions: 100 and 200 nM Fis-GST; recombinant protein; residues 1-98; protein details: N-terminal GST (pGEX-6p-1); label: 3' biotin; probe letters rebuilt from the primers and the genome

Row | Sequence | binding result
1 | GAATGAATCTCCATTTCAGATGGTTATATTTTAGGTTGAGTGATAAATAGAATGCGCAATATTGACATCCTATCAATTGAAGTCTTTATCCATATCGGTGTATGAAATATGATGAAAGACACTATAATGTTATAGTTGGTTTCTCCAGTAGTTCCAGTTTTCTTGGCTGTGTGAATATTTTAATCTAAAATTATTTCTGCGATAGAATCTAAAGGCGTCGATGTCAGGAAGGCTTATCAAGGTGTTTTTTTTCGGTGTTTATTCATATCAGGAAATTAAAATAACTCACGGGTGATATAATACGATAAATTAAAATAAACGAGAATTTTTTTCTGAAAAAAACAGAAGTTCTGGTGATAGTCACCTGTAGAGATTAGCGTGA (double strand) [celZ promoter] | binds
2 | ATTCAGTGCTGCTGTGGTTTCAGCTATATTCATCATCGTGAAATATTTACCATTCAATATACTTAACGAATTCTCAGTAGTGGTGTTAGATATCTTTGTTGCCATGATTTCTGCCATTGTTGGTGTAATTATGGGCGTGCTCCGGGGAAGGACGATTGTATTATCAAAGAAGTGAAATAGGATTATGAATTTTCCTACGCCTATCCTGGTTATAATACCAAGGAGTAAGTTTAACAGTTATTAACAATAAAGCGGGTCATAGTGAGGTACATGGCTTCATGTTACCCAGGGATGGCTTTGCCTTTTGTGAGAGGGAATATATGTTAGGGAAGGATATATTGCACCTGAATAGCGGGGCAAGTGACATTGCAATTGTCGGA (double strand) [zmsA promoter] | binds
3 | GGGAAACCGGCCGATGAAACGGCCAGTCTGGTCGCCGCTGAGCATGGTATATCGCTAGATGGACATGTTGCGCGTCAGTTGACCTCGCCGTTGTGTCGGCATTACGACCTGATTCTGGTGATGGAAAAGGCTCAAATTGATGCCGTGTGCCGTTTCGCCCCGGAAGTCCGGGGGAAAACGTTGTTGTTCGGGCACTGGTTTAACCAGCAGGAGATCACCGACCCGTACCGTAAGAGCCGGGAAGCCTTTGAGTTTGTGTATACCCAACTTGAACAATCTGCCCGTAAATGGGCACAGGCGCTGAGCCGTTAACCAGTCAGGGATTACGATGTCAGAGAGAATTGCC (double strand) [amsA promoter] | binds
4 | GTATGACGGATGCCACCTGTGCCTGAACGGCAGCGACGTACTGATCCTCTGGTGGCCGTTGCCACCGGCGTCTGACTCCTATGCACAACGGGTTGAACAGCTGTTTGCCTTGGCTGAGCTGACATTACCGCCGGTTGCGGCAACGCGGGCGCAAAAAGAGCGCAACGTGCCGCGATTTGTGCGGTAACTGCCGCTTTTTTAGGTCAGACCGGTGAATAGGGGGAACCGTTTCACTGCCCGTGTCACTCAGTAACCAGTATCCATCATGATGCCCACATCGGGAGCGGCGTAGGCATCCGTTGCAGGTACTGTTGCGAATATCTGACATGAATGAGGAAACGAGATTATG (double strand) [hrpN promoter] | binds
5 | TTTCCATCCCGCTTTATCCCGGCAGGCAGGCGAACCACGGATATCTATCCATTGCTACCAGAGCCACCCTCTCGCCGTTGCCACACCCACACACACCCGCTACACCATGGGCTCGCGTTGCCTATAGACCAATTGCGAGACGAAAAATCCCATGTTCGACACGTCATCGTCCCATTAATGGGATCACTTATAGGCAGGCGTAAGCATTTCCCTTTAAAAACAAGCAATAACAACATGGCACACAATTTGCCTTAGACAGATCGTACGTCTGACCAAGGGACAATAATCAACCACTGAATTCGCCGCTGTAAGGATTTTTGGATTTAGCTGGACCAGACACGGGGAATCTATTTTTTTGGGATGACACCATGA (double strand) [vfmE promoter] | binds
6 | CTGGCATAACAGGAAACAGGATGCCTGTCAGCCAGCAACACGACTGTAGACAGGTGTCTCGTACGCACGGCGTGATGGTAAGAAACGCATAAAAATGCGCCAGGCATGCATGCCATCATGTGACCGTGTGGCCTTTCCGGCAAACCAGTTTGAATACATATCGTTACCTGTATGGGTGATGTCTGGTCCGCAGGTAGTAAAACGACAACCAACGCAGAAGCGCTGTTTTTCAGACGTCGCATCCATTTTAAATGGGTGCCATGCCGTTAAACATGGCGCTGTATGGCCCTTATTCCACGTTTGCGAACGTGGCAAGGATAATCGGCGAACGCATAGGGATAATGTTTGCAGATG (double strand) [outC promoter] | binds
7 | CATTATCTTTCCTTAGCCAGCCCATAAACAGTCTGCCCGCGCAGGTAGAATTCCCGACTGATCTGACTGAAGTTCTCTGAGTGTCCGGCAAACAATAATCCGCCTGGTTTAAGTAGCGGAACAAAACGACGCAAAATGCGTTCCTGAGTCTCTTTATCGAAATAAATCATCACATTACGACAAAAGATCGCATCAAACGGCGCAGGTACAGACCATTCTGGTGCCAATAGATTCACTTGCTGAAAATGAATCATGTTCGCCAGATCCGGACGAACCCGAACCAGACCACTGTGCGGCCCGGTTCCACGCAAAAAGAAGCGCTGCATCTGCTGTGGAGAAAGTGACCGGAGATCTTCCTGCCGATAAATACCCG (double strand) [cheB promoter] | binds
8 | GAGTGAGGAATGGCTAAAAATGTATTATCTCTGTTATTTTATGATGTAATGTCATTTTTTAGGGGGATAAATTTCTTTGGTGGTTGAGTATCATCATGGGTTTCTTTATCTTCATATCGCCTAAAGAGAGTATACTCACCTCACCCCAATATGCAGGATGCTATGTATTCAACACAACCTTTGCTCATGGATAGTCGAAGGAATATCATTTTCTTTCAACATGATATTTACCGAGCCAGGTTGCTTAACTTTGACGGGGCTGATTCATTCAGTCATCAATACCGCTATTGATGTCGGATAGATAGCGCAATAACGATTTATTTTCCTGATAGCATGGTTTGGTGTAGGCATCTTGGGGCTAATGGATAAATGATTTTTACAACATAAATG (double strand) [pelL promoter] | binds
9 | GCAGGATGCTTTTAAGACGGAACAACCACAGGCACAGTCAGATACATTATCTATTCGTCATTGCCGTGAGTCAGACTATTTTATGGATGCCGATATTTCCACCCGCTGGGAGAGCGACACTATCAATATCTACATTACTCGAGATGCTGAACAGCAATTAAAGCTCCATATTACCTGTTGCTGTTTCAATCAAGAGGGCATGGAACAGTTTTTACAGTTGATCCGTCAACAACTCTCTTCCCTGAATTAATTGAGCTGGATATTCA (double strand) [zmsK promoter] | binds
